The other results are listed elsewhere or left out. Env chains of viruses from a treatment-interruption trial, translated from the printed DNA. IC50 / IC80 of two broadly neutralizing antibodies; lower = more sensitive virus; >50 µg/ml means not reached and <0.001 µg/ml is below the lowest dose. No active / inactive call.
What was measured:
[1] = biological target: antibody 10-1074; test: neutralization IC50; higher = virus less sensitive to the antibody
Description: (§1)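 Pseudovirus bearing the Env chain mixed with antibody, from 50 µg/ml in fivefold dilutions, on TZM-bl reporter cells, in duplicate.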

[2] = biological target: antibody 3BNC117; test: as above
Description: as §1

[3] = biological target: antibody 10-1074; test: neutralization IC80; higher = virus less sensitive to the antibody
Description: as §1

[4] = biological target: antibody 3BNC117; test: as above
Description: as §1

Binder | neutralization IC50 [1] | neutralization IC50 [2] | neutralization IC80 [3] | neutralization IC80 [4]
HIV-1 Env, rebound clone, placebo arm (protein) MRVKGIRKSCQRLWRWGIMLLGMLMISSATEKLWVTVYYGVPVWKEANTTLFCASDAKAYDTEAHNVWATHACVPTDPNPQELDLENVTENFNMWKNGMVEQMHEDVISLWDQSLKPCVKLTPLCVTLNCTNDVNFRVNSSNSNSSINSSSSISNSSIEEKGEIKNCSFNITTSIRDKVTKEYALFYRLDIVSIKDDKSDNSNNTNTRYRLINCNTSVITQACPKVSFEPIPIHYCAPAGFAILKCKDREFNGSGTCQNVSTVQCTHGIKPVVSTQLLLNGSLAEGEVVIRSENFSDNAKTIIVQLSRPVVINCTRPNNNTRKSIHIAPGRTFYATGDIIGDIRQAHCNISKRDWNKTLKEVKGKLEKQYNKTILFNQSSGGDPEIVFHTFNCAGEFFYCNTTNLFNNNITINNGTNGTNTNENITLPCRIKQIINLWQEVGKAMYAPPIKGQIRCSSNITGLLLTRDGGLNENRTNDTVRPGGGDMRDNWRSELYRYKVVEIEPLGIAPTKAKRRVVQREKRAVGAIGAMFLGLLGAAGSTMGAASITLTVQARLVLSGIVQQQNNLLRAIEAQQHLLQLTVWGIKQLQARVLAVERYLKDQQLLGIWGCSGKLICTTSVPWNSSWSNRSLEYIWNNMTWMQWEREIDNYTGKIYTLIEEAQHKQEENELELLKLDEWSNLWNWFDISKWLWYIKIFIMIVGGLIGLRIVFAVISIVNRVRKGYSPLSFQTHFPAPRGPDRPGGTEEEGGDRDRDRSTRLVDGFLALVWDDLRSLILFLYHHLRDLLLIITRIVGLLGRRGWEILKYWWNLLQYWSRELKLSAISLYNATAVAVAEGTDRVIEVVQRIFRGVLHVPRRIRQGLERILV | 0.01 µg/mL | 0.084 µg/mL | 0.029 µg/mL | 0.242 µg/mL
HIV-1 Env, rebound clone, placebo arm (protein) MRVKGIRKSCQRLWRWGIMLLGMLMISSATEKLWVTVYYGVPVWKEANTTLFCASDAKAYDTEAHNVWATHACVPTDPNPQELDLENVTENFNMWKNGMVEQMHEDVISLWDQSLKPCVKLTPLCVTLNCTNDVNLRVNSSNSNSSINSSSSISNSSIEEKGEIKNCSFNITTSIRDKVTKEYALFYRLDIVSIKDDKSDNSNDTNTRYRLINCNTSVITQACPKVSFEPIPIHYCAPAGFAILKCKDREFNGSGTCQNVSTVQCTHGIKPVVSTQLLLNGSLAEGEVVIRSENFSDNAKTIIVQLSRPVVINCTRPNNNTRKSIHIAPGRTFYATGDIIGDIRQAHCNISKRDWNKTLKEVKGKLEKQYNKTILFNQSSGGDPEIVFHTFNCAGEFFYCNTTNLFNNNITINNGTNGTNTNENITLPCRIKQIINLWQEVGKAMYAPPIKGQIRCSSNITGLLLTRDGGLNENRTNDTVRPGGGDMRDNWRSELYRYKVVEIEPLGIAPTKAKRRVVQREKRAVGAIGAMFLGLLGAAGSTMGAASITLTVQARLVLSGIVQQQNNLLRAIEAQQHLLQLTVWGIKQLQARVLAVERYLKDQQLLGIWGCSGKLICTTSVPWNSSWSNRSLEYIWNNMTWMQWEREIDNYTGKIYTLIEEAQHKQEENELELLKLDEWSNLWNWFDISKWLWYIKIFIMIVGGLIGLRIVFAVISIVNRVRKGYSPLSFQTHFPAPRGPDRPGGTEEEGGDRDRDRSTRLVDGFLALVWDDLRSLILFLYHHLRDLLLIITRIVGLLGRRGWEILKYWWNLLQYWSRELKLSAISLYNATAVAVAEGTDRVIEVVQRIFRGVLHVPRRIRQGLERILV | 0.018 µg/mL | 0.149 µg/mL | 0.046 µg/mL | 0.507 µg/mL
HIV-1 Env, rebound clone, placebo arm (protein) MRVKGIRKSYQPLWVGGILLLGMLMLCSTTEQLWVTVYYGVPVWKEATTTLFCASDAKGYDTEAHNVWATHACVPTDPNPQELKLENVTENFNMWKNDMVQQMHEDIISLWDQSIKPCVKLTPLCVTLNCSGVNINNTNANTTSNNTSWREMKEEIKNCSFNHTDIRNKMRKDYALFNSLDVIPIDRNDTTSYMLTSCNTSVITQACPKISFEPIPIHYCAPAGFAILKCNDKKFNGTGPCKNVSLVQCTHGIKPVVSTQLLLNGSLAEEDIVIRSEDFTNNAKTIIVQLNSSIAINCSRPNNNTRKSIHLGPGAAIYATGDIIGNIRQAHCNLSKVDWENTLDKIAKKLQGQFGENKTIVFNHSSGGDPEIVQHSFNCGGEFFYCNTTNLFFWNSTGHRNNTPNNSTDIITIQCRIKQIINRWQQVGRAIYAPPISGNISCSSIITGLLLTRDGGNSSNSNETFRPGGGDMRDNWRSELYKYKVVSIEPLGIAPTRARRRVVQREKRAVGMIGAMFLGFLGAAGSTMGAASVALTVQARQLLSGIVQQQNNLLRAIEAQQHMLQLTVWGIKQLQARVLAVERYLKDQQLLGIWGCSGKLICTTNVPWNISWSNRNLKDIWGNMTWMQWEREIDNYTGLIYSLLTESQTQQEQNEKELLELDKWASLWNWFDISNWLWYIKIFIMIVGGLVGLRIIFTILNVVNRVRKGYSPLSFQTRLPATRGPDRPEETEEEGGGRDRGRSETLVTGFLALIWDDLRSLCLFIYHRLRDLLLIATRSVELLGRRGWELLKYLWNLLQYWGQELRNSAVSLLNATAIAVAEGTDRIIEVAQRIGRAIIHIPRRIRQGAERALL | 0.052 µg/mL | 0.147 µg/mL | 0.145 µg/mL | 0.484 µg/mL
HIV-1 Env, rebound clone, placebo arm (protein) MRVKGIRKSYQPLWVGGILLLGMLMLCSTTEQLWVTVYYGVPVWKEATTTLFCASDAKGYDTEAHNVWATHACVPTDPNPQELKLENVTENFNMWKNGMVQQMHEDIISLWDQSIKPCVKLTPLCVTLNCSGVNINNTNANITSNNTSWREMKEEIKNCSFNHTDTRNKMRKDYALFNSLDVIPIDRNDSTSYMLTSCNTSVITQACPKISFEPIPIHYCAPAGFAILKCNDKNFNGTGPCKNVSLVQCTHGIKPVVSTQLLLNGSLAEEDIVIRSENFTNNAKTIIVQLNSSIEITCIRPNNNTRKSIHLGPGAAFYATGDIIGDIRKAYCNISKVKWENTLDKIAKKLQGQFGENKTIVFNHSSGGDPEIVHHSFNCGGEFFYCNTTKLFSWNSTRTPNNSTDIITIPCRIKQIINRWQQVGRAIYAPPISGNISCSANITGLLLTRDGGDSNSTDNNTETFRPGGGDMRDNWRSELYKYKVVSIEPLGIAPTKARRRVVQREKRAVGMIGAMFLGFLGAAGSTMGAASVALTVQARQLLSGIVQQQNNLLRAIEAQQHMLQLTVWGIKQLQARVLAVERYLKDQQLLGIWGCSGKLICTTNVPWNISWSNRNLDDIWGNMTWMQWEREIDNYTGLIYSLLTESQTQQEQNEKELLELDKWASLWNWFDISNWLWYIRIFIMIVGGLVGLRIIFTILNVVNRVRKGYSPLSFQTRLPATRGPDRPEETEEEGGGRDRGRSETLVTGFLALIWDDLRSLCLFIYHRLRDLLLIATRSVELLGRRGWELLKYLWNLLQYWGQELRNSAVSLLNATAIAVAEGTDRIIEVAQRIGRAIIHIPRRIRQGAERALL | 0.009 µg/mL | 0.619 µg/mL | 0.022 µg/mL | 1.7 µg/mL
HIV-1 Env, rebound clone, placebo arm (protein) MRVKGIRKSYQPLWVGGILLLGMLMLCSTTEQLWVTVYYGVPVWKEATTTLFCASDAKGYDTEAHNVWATHACVPTDPNPQELKLENVTENFNMWKNGMVQQMHEDIISLWDQSIKPCVKLTPLCVTLNCSGVNINNTNANTTSNNTSWREMKEEIKNCSFNHTDTRNKMRKDYALFNSLDVIPIDRNDSTSYMLTSCNTSVITQACPKISFEPIPIHYCAPAGFAILKCNDKNFNGTGPCKNVSLVQCTHGIKPVVSTQLLLNGSLAEEDIVIRSENFTNNAKTIIVQLNSSIEITCIRPNNNTRKSIHLGPGAAFYATGDIIGDIRKAYCNISKVKWENTLDKIAKKLQGQFGENKTIVFNHSSGGDPEIVHHSFNCGGEFFYCNTTKLFSWNSTRTPNNSTDIITIPCRIKQIINRWQQVGRAIYAPPISGNISCSANITGLLLTRDGGDSNSTDNNTETFRPGGGDMRDNWRSELYKYKVVSIEPLGIAPTKARRRVVQREKRAVGMIGAMFLGFLGAAGSTMGAASVALTVQARQLLSGIVQQQNNLLRAIEAQQHMLQLTVWGIKQLQARVLAVERYLKDQQLLGIWGCSGKLICTTNVPWNISWSNRNLDDIWGNMTWMQWEREIDNYTGLIYSLLTESQTQQEQNEKELLELDKWASLGNWFDISNWLWYIRIFIMIVGGLVGLRIIFTILNVVNRVRKGYSPLSFQTRLPATRGPDRPEETEEEGGGRDRGRSETLVTGFLALIWDDLRSLCLFIYHRLRDLLLIATRSVELLGRRGWELLKYLWNLLQYWGQELRNSAVSLLNATAIAVAEGTDRIIEVAQRIGRAIIHIPRRIRQGAERALL | 0.003 µg/mL | 0.954 µg/mL | 0.021 µg/mL | 3.98 µg/mL
HIV-1 Env, rebound clone, placebo arm (protein) MRVKGIRKSYQPLWVGGILLLGMLMLCSTTEQLWVTVYYGVPVWKEATTTLFCASDAKGYDTEAHNVWATHACVPTDPNPQELKLENVTENFNMWKNGMVQQMHEDIISLWDQSIKPCVKLTPLCVTLNCSGVNINNTNANTTSNNTSWREMKEEIKNCSFNHTDTRNKMRKDYALFNSLDVIPIDRNDSTSYMLTSCNTSVITQACPKISFEPIPIHYCAPAGFAILKCNDKNFNGTGPCKNVSLVQCTHGIKPVVSTQLLLNGSLAEEDIVIRSENFTNNAKTIIVQLNSSIEITCIRPNNNTRKSIHLGPGAAFYATGDIIGDIRKAYCNISKVKWENTLDKIAKKLQGQFGENKTIVFNHSSGGDPEIVHHSFNCGGEFFYCNTTKLFSWNSTRTPNNSTDIITIPCRIKQIINRWQQVGRAIYAPPISGNISCSANITGLLLTRDGGDSNSTDNNTETFRPGGGDMRDNWRSELYKYKVVSIEPLGIAPTKARRRVVQREKRAVGMIGAMFLGFLGAAGSTMGAASVALTVQARQLLSGIVQQQNNLLRAIEAQQHMLQLTVWGIKQLQARVLAVERYLKDQQLLGIWGCSGKLICTTNVPWNISWSNRNLDDIWGNMTWMQWEREIDNYTGLIYSLLTESQTQQEQNEKELLELDKWASLWNWFDISNWLWYIRIFIMIVGGLVGLRIIFTILNVVNRVRKGYSPLSFQTRLPATRGPDRPEETEEEGGGRDRGRSETLVTGFLALIWDDLRSLCLFIYHRLRDLLLIATRSVELLGRRGWELLKYLWNLLQYWGQELRNSAVSLLNATAIAVAEGTDRIIEVAQRIGRAIIHIPRRIRQGAERALL | 0.008 µg/mL | 0.441 µg/mL | 0.024 µg/mL | 1.23 µg/mL
